Data as given in PubChem BioAssay AID504761 (Drosophila RNAi Screening Center, 2011)
Assay: 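Fly genes whose silencing reduces dengue virus type 2 infection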 (primary screen). Cells: D.Mel-2 cells from Drosophila. Reagent: long dsRNA against Drosophila genes. Treatment: infection with dengue virus type 2; dose and infection time not stated. Detection: 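Cells stained for dengue envelope protein and imaged; percent of infected cells per well on duplicate plates, ranked by infection, with stained nuclei counted for cell number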. Direction: infection score: higher = more virus-infected cells; cell count: higher = more cells in the well. Hit rule: 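Very low infection ranking in both replicate wells (chance probability at most 0.065), then a retest showing infection dropped 1.5-fold or more at p below 0.05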. Meaning of the calls: active = confirmed: knock-down lowers infection; inactive = not picked or not confirmed.
In all, the deposit lists about 22,000 reagents; this is a random part of those that have a named target and a result. In the full data, 116 (0.52%) were called active. 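Calls depend on retest data that are not deposited; infection was ranked per plate without normalising between plates; the unit of the infection score is not given.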 Raw values vary from plate to plate and are shown uncorrected. A plus sign joins genes that one reagent is predicted to hit. No sequences are given here. Not given: the amount of reagent, the time to read-out.

| Target gene | dsRNA | infection score, replicate 1 | infection score, replicate 2 | cell count, replicate 1 | cell count, replicate 2 | call |
| --- | --- | --- | --- | --- | --- | --- |
| CG12107 | DRSC06102 | 16.9 | 21.8 | 6490 | 5853 | inactive |
| Pyroxd1 (Pyridine nucleotide-disulfide oxidoreductase domain 1) | DRSC02098 | 2.23 | 2.55 | 1477 | 6786 | inactive |
| Arv1 (ACAT-related protein required for viability 1) | DRSC11491 | 0.6 | 0.77 | 6207 | 5961 | inactive |
| Bruce (BIR repeat containing ubiquitin-conjugating enzyme) | DRSC16015 | 6.13 | 1.47 | 7485 | 7136 | inactive |
| alpha-Man-Ic (alpha-Mannosidase class I c) | DRSC21674 | 1.74 | 2.82 | 6278 | 6770 | inactive |
| alpha-Man-Ic (alpha-Mannosidase class I c) | DRSC27509 | 4.93 | 7.02 | 6434 | 6793 | inactive |
| Ald1 (Aldolase 1) | DRSC14109 | 1.34 | 2.99 | 4021 | 3746 | inactive |
| Ald1 (Aldolase 1) | DRSC25381 | 1.58 | 1.86 | 3869 | 3716 | inactive |
| mtrm (matrimony) | DRSC23076 | 1.91 | 15.8 | 5662 | 5505 | inactive |
| CG11257 | DRSC06068 | 4.01 | 1.83 | 6307 | 6504 | inactive |
| Gapdh1 (Glyceraldehyde 3 phosphate dehydrogenase 1) | DRSC07433 | 4.43 | 5.36 | 6528 | 1363 | inactive |
| Gapdh1 (Glyceraldehyde 3 phosphate dehydrogenase 1) | DRSC25746 | 0.6 | 4.03 | 6122 | 6158 | inactive |
| CG8299 | DRSC07139 | 7.12 | 15.9 | 6646 | 6194 | inactive |
| CG8299 | DRSC25580 | 10.5 | 8.77 | 3399 | 2986 | inactive |
| aay (astray) | DRSC11320 | 6.21 | 3.72 | 6164 | 5960 | inactive |
| pnt (pointed) | DRSC23204 | 5.3 | 12.9 | 5061 | 6021 | inactive |
| pnt (pointed) | DRSC29116 | 0.27 | 19.6 | 376 | 3739 | inactive |
| Paf-AHalpha (Platelet-activating factor acetylhydrolase alpha) | DRSC20267 | 3.83 | 4.29 | 5620 | 6114 | inactive |
| CG6972 + CCAP | DRSC28448 | 24.5 | 5.44 | 5174 | 3178 | inactive |
| Mical (Molecule interacting with CasL) | DRSC14349 | 6.46 | 2.16 | 6807 | 6809 | inactive |
| Mical (Molecule interacting with CasL) | DRSC14351 | 11.2 | 6.53 | 5922 | 6888 | inactive |
| Mical (Molecule interacting with CasL) | DRSC15365 | 4.29 | 4.5 | 6521 | 6398 | inactive |
| Mical (Molecule interacting with CasL) | DRSC15366 | 10.3 | 4.7 | 6367 | 6451 | inactive |
